PubChem BioAssay AID624099 | ICCB-Longwood – 2012
The deposit covers about 21,000 reagents; shown is a random part of them. Of all reagents, 497 (2.4%) are marked active. 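Higher z means weaker E2 silencing; only reporter increases were scored, and knock-downs that hurt cell survival may mask genuine repressor factors.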 Entries without a mark were called inactive.

Purpose: 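Knock-downs relieving repression by E2 of an HPV18 LCR luciferase reporter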 (primary screen)
Cell system: human C33A cervical carcinoma cells (HPV-negative) stably expressing BPV1 E2 and an HPV18 LCR luciferase reporter
Reagent: siRNA pool against human genes, 40 nM
Duration: 72 h
Read-out: 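HPV18 LCR reporter light per well, converted to plate-wise z-scores that exclude control wells, and averaged over triplicate plates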
Reading the numbers: mean z-score and z-score: higher = stronger reporter signal, weaker E2 silencing
Call rule: 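Mean z ≥ 2 together with z ≥ 2 in two or more of the three replicates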

target	mean z-score	z-score, replicate A	z-score, replicate B	z-score, replicate C
DNAI3	-0.67	-0.57	-0.76	-0.69
EHHADH	-0.59	-0.84	-0.32	-0.61
LCE2C	1.8	1.37	1.93	2.08
CS	-0.06	-0.23	-0.16	0.19
KRTDAP	-1.23	-1.19	-1.47	-1.04
TOB2	-0.21	-0.08	-0.09	-0.47
TMOD3	-1.33	-1.11	-1.31	-1.55
C11orf68	1.88	2.12	2.15	1.38
MEIOC	-0.07	-0.14	-0.07	0
BCORL1	0.59	0.59	0.74	0.43
DRAIC	0.9	0.39	0.07	2.25
PIWIL4	-0.19	-0.01	-0.37	-0.18
ALOXE3	0.17	0.42	-0.01	0.1
OR10X1	0.42	0.84	0.14	0.29
WIPF2	-0.64	-1.19	-0.54	-0.2
TMC1	1.86	1.24	2.13	2.19
RPS12P23	0.31	0.19	0.5	0.24
GCK	-0.6	-0.99	-0.25	-0.56
TRHR	-0.25	-0.25	-0.12	-0.39
LOC100506459	0.51	0.58	0.51	0.44
CDC27	-0.55	-0.51	-0.51	-0.64
SEPHS1	0.39	0.28	0.4	0.49
ZNRF1	0.55	0.41	0.63	0.61

The list goes on (7 carried over from the part before).
target	mean z-score	z-score, replicate A	z-score, replicate B	z-score, replicate C
RPS12P23	0.31	0.19	0.5	0.24
GCK	-0.6	-0.99	-0.25	-0.56
TRHR	-0.25	-0.25	-0.12	-0.39
LOC100506459	0.51	0.58	0.51	0.44
CDC27	-0.55	-0.51	-0.51	-0.64
SEPHS1	0.39	0.28	0.4	0.49
ZNRF1	0.55	0.41	0.63	0.61
SPRED1	0.03	-0.1	0.1	0.1
SNED1	-0.27	-0.34	-0.08	-0.39
MYCBP2	-0.45	-0.24	-0.92	-0.19
PROSER1	0.17	0.25	0.89	-0.62
KRTAP3-3	1.18	1.45	1.01	1.07
ARPC4	-0.19	-0.04	-0.4	-0.15
OGFR	0.41	0.46	0.28	0.48
LOC401449 (retired record)	0.37	0.68	0.47	-0.04
CYP2S1	0.31	0.85	0.16	-0.07
TLX1	0.69	0.49	0.88	0.7
BANF2	-2.12	-2.24	-2.38	-1.74
VPS18	0.04	-0.32	0.22	0.22
ADGRB1	-0.73	-0.71	-0.91	-0.56
NXPH2	-0.7	-0.73	-0.67	-0.7
MARCKSL1	0.06	0.05	-0.01	0.14
SMO	-0.65	-0.47	-0.81	-0.66
SH3D19	-0.1	-0.23	0.01	-0.08
EIF5B	-1.08	-0.94	-1.04	-1.26
TESPA1	0.27	0.14	0.61	0.05
LOC729078 (retired record)	-0.5	-0.52	-0.61	-0.36
TMEM74	1.95	2.19	1.49	2.18
GNAO1	0.25	0.49	0	0.27
RAC1P4	0.54	0.18	0.73	0.71
TTC12	1.24	1.45	1.35	0.93
AMT	-1.23	-0.95	-1.51	-1.22
PARK7	1.53	1.86	1.5	1.23
FAM215A	-0.3	-0.23	-0.12	-0.53
GCN1	-0.69	-0.54	-0.83	-0.7
RPL12	1.03	1.14	0.84	1.11
DRD5	0.93	0.78	0.91	1.09
OR2D3	0.63	0.82	0.24	0.82
RSL24D1	-0.18	-0.15	0.22	-0.63
LOC401584 (retired record)	-0.74	-0.69	-0.54	-0.98
ATP2A1	-0.23	-0.19	-0.2	-0.31
